SMILES strings stand for the structures. Only a part is listed here, and it is no random draw. The source made the active and inactive calls. Cut-off read from the data, not from the text of the source: active = activation above about 50%; inactive = the rest.

Chains of the proteins cited; added tags and fusions are not shown. Lines headed by an entry give the natural chain unless they say otherwise; changes in a name come on top.
UniProt P0AE70: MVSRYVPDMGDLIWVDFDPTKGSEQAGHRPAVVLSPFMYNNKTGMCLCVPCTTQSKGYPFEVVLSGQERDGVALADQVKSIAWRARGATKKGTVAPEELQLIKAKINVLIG

The target of this test is Endoribonuclease toxin MazF (Escherichia coli (strain K12)) (UniProt P0AE70). Kind of test: activators of E. coli MazEF toxin-antitoxin RNase, primary screen, biochemical, fluorescence, uHTS (AID 504720). To be noted: FAM/BHQ RNA-DNA oligo cleavage fluorescence, 5 h, at 20 µM, hits give high values.
Turning to `c1ccc(-c2nn[nH]n2)c(-c2nn[nH]n2)c1`, the activation was inactive: 10.4%.
In the case of `CCNC(=S)/N=C(\N)N[N+](=O)[O-]`, the activation was inactive: 3.13%.
Turning to `O=C(NC1CCS(=O)(=O)C1)NP(=S)(Oc1ccccc1)Oc1ccccc1` (configuration not stated), the activation was inactive: 1.51%.
The figure for `O=P1(N(CCCl)CCCl)OCCC2CCCCN21` (configuration not stated) is inactive: -7.54%.
The figure for `O=[As](O)(c1ccccc1)c1ccc(O)cc1` is inactive: 3.78%; for `O=[N+]([O-])c1ccc(O)c(/C=N/Nc2ccc([N+](=O)[O-])cc2[N+](=O)[O-])c1` it is inactive: 17.7%.
The figure for `O=[N+]([O-])c1ncn(CCn2cnc([N+](=O)[O-])n2)n1` is inactive: 7.01%; for `CC(=O)NC(SC(=S)N(C)C)C(Cl)(Cl)Cl` (configuration not stated) it is inactive: 4.11%; for `O=C(OC1CN2CCC1CC2)c1cccc(Cl)c1` (configuration not stated) it is inactive: 4.48%.
With `Nc1ccc([As](=O)(O)c2ccc([N+](=O)[O-])cc2)cc1`, the activation was inactive: 5.39%.
The same measure for `C(Cc1nn[nH]n1)Cc1nn[nH]n1`: inactive: 1.23%; for `O=P(Nc1ccccn1)(c1ccc(Br)cc1)c1ccc(Br)cc1`: inactive: -0.906%; for `CN(C)C1(CNC(=O)c2ccc(Cl)c(S(N)(=O)=O)c2)CCCCC1`: inactive: 1.5%.
The same measure for `COc1ccc(N)c([N+](=O)[O-])c1[N+](=O)[O-]`: inactive: 14.4%; for `C[C@H]1OP(=O)(Oc2ccccc2)[C@H](O)[C@H](O)[C@H]1N=[N+]=[N-]` (some centres not stated): inactive: 5.81%; for `O=P(Nc1nc2ccccc2s1)(c1ccccc1)c1ccccc1`: inactive: 1.66%.
The figure for `CC(C)C(=O)NC(Sc1ccccc1)C(Cl)(Cl)Cl` (configuration not stated) is inactive: 3.78%.
For `O=P(Nc1nccs1)(c1ccccc1)c1ccccc1`, the activation was inactive: -0.421%.
The figure for `c1nnnn1CCn1cnnn1` is inactive: 0.353%; for `COc1ccccc1CNC(=O)COC(=O)C(O)(c1ccccc1)c1ccccc1` it is inactive: 4.03%.
The figure for `CC(C)/C=N\N=C(\N)N[N+](=O)[O-]` is inactive: -2.64%.
The same measure for `CN(C(=O)Cc1ccc(Cl)c(Cl)c1)[C@@H]1CCCC[C@H]1N1CCCC1`: inactive: -4.86%.
Regarding `CC1(CBr)Cn2c(nc3ccccc3c2=O)S1` (configuration not stated), the activation is inactive: 6.21%.
The figure for `CCOP(=O)(NC(=NC(C)c1ccccc1)NC(C)c1ccccc1)OCC` (configuration not stated) is inactive: 6.39%.
The same measure for `O=P1(Nc2ccccn2)COc2ccccc2OC1`: inactive: 6.59%; for `CCC1=CC2Cc3nc4ccc(Cl)cc4c(N)c3C(C1)C2` (configuration not stated): inactive: 19.5%; for `CN(CCCl)Cc1cc(Cl)c(NC2=NCCN2)c(Cl)c1`: inactive: 0.818%.
The same measure for `CCOP(=O)(Nc1ccc(C)cn1)OCC`: inactive: -2.27%.
For `CC(C)(C)C(=O)NC(Sc1ncccn1)C(Cl)(Cl)Cl` (configuration not stated), the activation is inactive: -7.45%.
The figure for `O=P1(N(CCCl)CCCl)NCCC(C(F)(F)F)O1` (configuration not stated) is inactive: 4.3%; for `Clc1n[nH]nc1-c1nn[nH][15n]1` it is inactive: -17.5%.
The same measure for `O=P1(Nc2ncccn2)COc2ccccc2OC1`: inactive: 9.6%; for `Nc1cccc([As](=O)(O)c2ccccc2)c1`: inactive: 10.9%.
The same measure for `O=P1(Nc2ccc(Br)cn2)COc2ccccc2OC1`: inactive: -4.83%; for `NS(=O)(=O)c1cccc(NC(=O)COC(=O)C(O)(c2ccccc2)c2ccccc2)c1`: inactive: 6.27%; for `O=[As](O)(c1cccs1)c1cccs1`: inactive: 5.03%.
With `Cc1ccc(OCC(=O)OC2CN3CCC2CC3)cc1` (configuration not stated), the activation is inactive: 2.08%.
The same measure for `CC1CCC(C(C)C)C(OP(=O)(Nc2ccccn2)c2ccccc2)C1` (configuration not stated): inactive: -29.8%.
The same measure for `Cc1ccc(C(=O)OC2CN3CCC2CC3)cc1` (configuration not stated): inactive: -2.29%.
The figure for `Cc1nn(-c2ccccc2)c2c1P(=O)(N1CCOCC1)N(C)C(c1ccccc1)=N2` (configuration not stated) is inactive: 7.35%.
In the case of `CN(C)C1(CNC(=O)c2ccc(S(C)(=O)=O)cc2)CCCCC1`, the activation is inactive: 1.29%.
The figure for `CCCC1OP(=O)(Nc2ccccc2)OCC1CC` (configuration not stated) is inactive: 3.79%.
As for `O=C(/C=C/c1ccccc1)OC1CN2CCC1CC2` (configuration not stated), the activation is inactive: -2.38%.
The same measure for `NC(=O)Nc1ccc([As](=O)(O)O)cc1`: inactive: 0.934%.
Turning to `CN(C(=O)Cc1ccccc1)[C@@H]1CC[C@]2(CCCO2)C[C@H]1N1CCCC1`, the activation was inactive: 5.02%.
The same measure for `CCOP1(=S)c2c(C)nn(CCC#N)c2N=C(c2ccc(F)cc2)N1C` (configuration not stated): inactive: 2.33%; for `N#CCCN(C(=O)COC(=O)C(O)(c1ccccc1)c1ccccc1)c1ccc(F)cc1`: inactive: 1.6%.
As for `CN(C(=O)Cc1ccc(Cl)c(Cl)c1)[C@H]1CC[C@@]2(CCCO2)C[C@@H]1N1CCCC1`, the activation was inactive: 7.01%.
The same measure for `CN(C)C(=O)c1cc([N+](=O)[O-])cc2c1-c1c(cc([N+](=O)[O-])cc1[N+](=O)[O-])C2=O`: inactive: 3.95%.
The same measure for `O=[N+]([O-])c1ccc2c(c1)nnn2O`: inactive: -4.98%; for `O=P(Nc1nccs1)(c1ccccc1)c1nc2ccccc2s1` (configuration not stated): inactive: -5.75%; for `O=P(Nc1nccs1)(Oc1ccccc1)Oc1ccccc1`: inactive: 3.85%.
The same measure for `CCOP1(=S)c2c(C)nn(CCC#N)c2N=C(c2ccccc2F)N1C` (configuration not stated): inactive: 1.62%.
For `CS(=O)(=O)c1cc([N+](=O)[O-])c2no[n+]([O-])c2c1`, the activation was inactive: 21.7%.
The same measure for `Nc1ccccc1[As](=O)(O)c1ccccc1`: inactive: 6.67%.
The same measure for `O=C(O)COc1ccc([As](=O)(O)O)cc1[N+](=O)[O-]`: inactive: 5.51%.
The same measure for `Nc1cccc2c([As](=O)(O)O)cccc12`: inactive: -959%; for `Cc1ccc(NCCc2c([N+](=O)[O-])cc([N+](=O)[O-])cc2[N+](=O)[O-])cc1`: inactive: -0.2%; for `CCCOP(=S)(Nc1nc(N)cc(=O)[nH]1)OCCC`: inactive: 9.26%.
With `CCOP(=O)(Nc1cccc2ccccc12)OCC`, the activation was inactive: 5.65%.
Regarding `COc1cc(C2NCCC3(OCCO3)C2(C)C)cc(OC)c1OC` (configuration not stated), the activation is inactive: -3.57%.
The same measure for `O=C(OC1CN2CCC1CC2)c1ccc(Cl)cc1` (configuration not stated): inactive: 1.38%.
The same measure for `CS(=O)(=O)c1ccc(Cl)c(NC(=O)COC(=O)C(O)(c2ccccc2)c2ccccc2)c1`: inactive: 1.23%; for `COc1cc(C(=O)NCC2(N3CCOCC3)CCCCC2)cc(Cl)c1OC(C)C`: inactive: -4.65%; for `O=[As](O)(O)c1cccnc1`: inactive: -2.27%.
The figure for `O=[As](O)(c1cccc(O)c1)c1cccc(O)c1` is inactive: -1.78%.
Turning to `Cc1cccc(OCC(=O)OC2CN3CCC2CC3)c1` (configuration not stated), the activation was inactive: 0.084%.
The figure for `O=[N+]([O-])c1cc(Oc2ccc([N+](=O)[O-])cc2C(F)(F)F)cc([N+](=O)[O-])c1` is inactive: 7.22%; for `COc1ccc(N/C(=N/P(=O)(N2CCOCC2)N2CCOCC2)N2CCOCC2)cc1` it is inactive: -0.304%.
The figure for `Cc1c2c(nc3ccccc13)SC(C(Cl)Cl)C2` (configuration not stated) is inactive: 7.2%.
In the case of `Cc1cc(=O)[nH]c(N[N+](=O)[O-])n1`, the activation was inactive: 7.32%.
The same measure for `O=C(OC1CN2CCC1CC2)C12CC3CC(CC(C3)C1)C2` (configuration not stated): inactive: -10.8%.
The figure for `O=P1(N(CCCl)CCCl)OCCCN1CCCl` (configuration not stated) is inactive: -6.84%; for `O=P1(N(CCCl)CCCl)Nc2ccccc2N1` it is inactive: -3.27%.
The same measure for `COc1cc(I)ccc1[As](=O)(O)O`: inactive: -2.32%; for `COc1ccc2nc(NP(=O)(c3ccccc3)c3ccccc3)sc2c1`: inactive: 1.66%; for `ClCCSc1nnc(-c2cccnc2)o1`: inactive: 0.852%.
Take `CC(C)c1ccc(OP(=O)(Nc2ccccn2)Oc2ccccc2F)cc1` (configuration not stated): the activation was inactive: 9.54%.
The figure for `COC(=O)C1(C)COP(=O)(N2CCCCCC2)OC1` (configuration not stated) is inactive: 2.61%; for `O=[N+]([O-])c1cc([N+](=O)[O-])c(-c2ccn[nH]2)s1` it is inactive: 1.15%; for `O=C(OC1CN2CCC1CC2)c1cccc2[nH]cnc12` (configuration not stated) it is inactive: 7.51%.
The figure for `CCN(CC)C(=S)SC(NC=O)C(Cl)(Cl)Cl` (configuration not stated) is inactive: -4.03%.
The same measure for `CC(C)NC(=O)NP(=O)(Oc1ccccc1)Oc1ccccc1`: inactive: 11%; for `COc1cc(C(=O)NCC2(N3CCOCC3)CCCCC2)ccc1OCC(C)C`: inactive: 15.5%; for `O=[N+]([O-])c1ccc(-c2cc([N+](=O)[O-])c(O)c([N+](=O)[O-])c2)cc1`: inactive: -13.4%.
As to `C[As](=O)(O)c1cccc(C(=O)O)c1`, the activation is inactive: 5.55%.
Turning to `O=[As](O)(c1ccc(O)cc1)c1ccccc1O`, the activation is inactive: 5.56%.
The figure for `Cc1ccc(OP(=O)(Nc2ccc([N+](=O)[O-])cn2)Oc2ccc(C)cc2)cc1` is inactive: 4.56%; for `Cc1ccc2nc3c(c(C)c2c1)CC(C(Cl)Cl)S3` (configuration not stated) it is inactive: -5.61%.
For the compound `CCOC(=O)Nc1cccc([As](=O)(O)O)c1`, the activation was inactive: 6.74%.
As for `O=P(Nc1ccccn1)(c1cccc2ccccc12)c1cccc2ccccc12`, the activation is inactive: 16.9%.
Regarding `Cc1cc(SC(NC=O)C(Cl)(Cl)Cl)ncn1` (configuration not stated), the activation is inactive: -3.21%.
Consider `O=[N+]([O-])c1ccc(Nc2ccc(Oc3ccc([N+](=O)[O-])cc3[N+](=O)[O-])cc2)c([N+](=O)[O-])c1`, for which the activation was inactive: 1.43%.
In the case of `CCOC(=O)Nc1ccc([As](=O)(O)O)c(O)c1`, the activation is inactive: 5.25%.
The same measure for `O=C(O)C(O)c1ccc(N(CCCl)CCCl)cc1` (configuration not stated): inactive: -3.39%; for `CC1CCNP(=O)(N(CCCl)CCCl)O1` (configuration not stated): inactive: 4.66%; for `COP(=O)(OC)N1CC1c1ccccc1` (configuration not stated): inactive: 9.38%.
The figure for `Cc1cc(SC(NC(=O)c2ccccc2)C(Cl)(Cl)Cl)nc(C(C)C)n1` (configuration not stated) is inactive: 2.78%; for `CCCCOc1ccc(C(=O)NCC2(N3CCCCC3)CCCCC2)cc1OC` it is inactive: 2.6%.
The figure for `CSc1ccc(Nc2c([N+](=O)[O-])cc([N+](=O)[O-])cc2[N+](=O)[O-])cc1` is inactive: 11.9%.
Regarding `O=C(OC1CN2CCC1CC2)c1cccc([N+](=O)[O-])c1` (configuration not stated), the activation is inactive: 7.45%.
For `CCOC(=O)c1ccc(NC(=O)C(C)(CCl)SC)cc1` (configuration not stated), the activation is inactive: 6.74%.
The same measure for `CCC(C)N(CC(C)C)C(=S)SC(NC(C)=O)C(Cl)(Cl)Cl` (configuration not stated): inactive: 3.33%; for `COP1(=S)c2c(C)nn(CCC#N)c2N=C(c2ccc(F)cc2)N1C` (configuration not stated): inactive: 3.35%.
The figure for `O=C(O)C(=O)c1ccc(N(CCCl)CCCl)cc1` is inactive: -4.79%.
The figure for `O=C(Nc1ccncc1[N+](=O)[O-])c1ccc([N+](=O)[O-])cc1[N+](=O)[O-]` is inactive: 3.98%.
Consider `O=C(COc1ccccc1)OC1CN2CCC1CC2` (configuration not stated), for which the activation was inactive: 3.82%.

The record behind these values is PubChem BioAssay AID504720 (Sanford-Burnham Center for Chemical Genomics, 2011).
